Test results taken from article PMC9506549, “µ-Conotoxins Targeting the Human Voltage-Gated Sodium Channel Subtype NaV1.7” (2022).
Read-outs that look alike come from different tables or passages of the source.

Amino acid sequences for entries named in this document (tags omitted).
UniProt Q15858, whole entry, looked up: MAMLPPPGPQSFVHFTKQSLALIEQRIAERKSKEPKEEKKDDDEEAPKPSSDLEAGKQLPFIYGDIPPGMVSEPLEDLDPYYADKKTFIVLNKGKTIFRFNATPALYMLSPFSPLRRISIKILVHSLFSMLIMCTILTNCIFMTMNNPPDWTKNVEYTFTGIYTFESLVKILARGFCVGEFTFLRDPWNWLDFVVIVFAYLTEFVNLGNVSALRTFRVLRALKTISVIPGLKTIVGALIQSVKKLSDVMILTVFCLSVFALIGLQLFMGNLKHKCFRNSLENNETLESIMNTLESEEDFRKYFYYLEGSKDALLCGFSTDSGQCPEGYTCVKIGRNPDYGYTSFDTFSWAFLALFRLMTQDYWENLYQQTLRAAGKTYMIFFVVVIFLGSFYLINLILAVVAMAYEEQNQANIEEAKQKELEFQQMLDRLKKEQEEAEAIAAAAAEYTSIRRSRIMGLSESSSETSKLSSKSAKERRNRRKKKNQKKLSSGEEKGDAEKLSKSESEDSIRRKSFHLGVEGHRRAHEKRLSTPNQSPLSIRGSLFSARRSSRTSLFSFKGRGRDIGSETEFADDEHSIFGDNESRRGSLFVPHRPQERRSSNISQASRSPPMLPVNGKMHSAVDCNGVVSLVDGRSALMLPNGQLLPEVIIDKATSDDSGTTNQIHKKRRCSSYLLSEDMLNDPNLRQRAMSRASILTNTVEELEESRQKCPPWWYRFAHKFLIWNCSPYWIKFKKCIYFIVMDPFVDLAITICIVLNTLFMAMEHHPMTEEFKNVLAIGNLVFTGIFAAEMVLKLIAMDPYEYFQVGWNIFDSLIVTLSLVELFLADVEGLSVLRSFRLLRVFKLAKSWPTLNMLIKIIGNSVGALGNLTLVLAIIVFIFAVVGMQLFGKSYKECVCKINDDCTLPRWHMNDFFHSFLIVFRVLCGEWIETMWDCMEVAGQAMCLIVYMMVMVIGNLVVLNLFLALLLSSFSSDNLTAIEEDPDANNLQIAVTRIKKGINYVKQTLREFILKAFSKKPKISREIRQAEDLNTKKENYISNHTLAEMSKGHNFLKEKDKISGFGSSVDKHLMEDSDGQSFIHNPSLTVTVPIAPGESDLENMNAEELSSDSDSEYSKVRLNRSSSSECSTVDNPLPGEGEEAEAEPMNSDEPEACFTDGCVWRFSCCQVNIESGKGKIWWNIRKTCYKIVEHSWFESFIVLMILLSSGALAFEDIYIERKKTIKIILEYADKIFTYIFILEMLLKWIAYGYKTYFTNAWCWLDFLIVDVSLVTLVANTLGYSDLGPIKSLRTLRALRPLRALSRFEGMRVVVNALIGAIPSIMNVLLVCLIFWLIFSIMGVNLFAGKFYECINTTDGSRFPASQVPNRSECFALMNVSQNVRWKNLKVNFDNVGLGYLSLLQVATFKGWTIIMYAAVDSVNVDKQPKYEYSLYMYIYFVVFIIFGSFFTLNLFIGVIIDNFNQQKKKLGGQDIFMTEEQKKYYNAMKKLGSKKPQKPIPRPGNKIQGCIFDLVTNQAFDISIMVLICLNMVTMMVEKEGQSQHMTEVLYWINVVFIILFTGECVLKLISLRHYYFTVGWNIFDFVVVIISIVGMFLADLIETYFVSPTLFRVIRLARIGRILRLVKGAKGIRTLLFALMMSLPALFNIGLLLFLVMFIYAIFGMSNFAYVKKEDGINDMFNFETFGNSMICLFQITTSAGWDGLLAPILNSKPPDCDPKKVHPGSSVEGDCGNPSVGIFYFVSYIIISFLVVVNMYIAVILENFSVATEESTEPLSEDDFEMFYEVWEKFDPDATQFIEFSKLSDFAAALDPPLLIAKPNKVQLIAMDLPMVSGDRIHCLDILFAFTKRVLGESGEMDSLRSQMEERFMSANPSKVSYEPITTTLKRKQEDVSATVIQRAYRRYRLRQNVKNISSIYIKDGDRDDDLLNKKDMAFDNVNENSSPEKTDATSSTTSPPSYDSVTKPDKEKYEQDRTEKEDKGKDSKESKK
UniProt Q14524, whole entry, looked up: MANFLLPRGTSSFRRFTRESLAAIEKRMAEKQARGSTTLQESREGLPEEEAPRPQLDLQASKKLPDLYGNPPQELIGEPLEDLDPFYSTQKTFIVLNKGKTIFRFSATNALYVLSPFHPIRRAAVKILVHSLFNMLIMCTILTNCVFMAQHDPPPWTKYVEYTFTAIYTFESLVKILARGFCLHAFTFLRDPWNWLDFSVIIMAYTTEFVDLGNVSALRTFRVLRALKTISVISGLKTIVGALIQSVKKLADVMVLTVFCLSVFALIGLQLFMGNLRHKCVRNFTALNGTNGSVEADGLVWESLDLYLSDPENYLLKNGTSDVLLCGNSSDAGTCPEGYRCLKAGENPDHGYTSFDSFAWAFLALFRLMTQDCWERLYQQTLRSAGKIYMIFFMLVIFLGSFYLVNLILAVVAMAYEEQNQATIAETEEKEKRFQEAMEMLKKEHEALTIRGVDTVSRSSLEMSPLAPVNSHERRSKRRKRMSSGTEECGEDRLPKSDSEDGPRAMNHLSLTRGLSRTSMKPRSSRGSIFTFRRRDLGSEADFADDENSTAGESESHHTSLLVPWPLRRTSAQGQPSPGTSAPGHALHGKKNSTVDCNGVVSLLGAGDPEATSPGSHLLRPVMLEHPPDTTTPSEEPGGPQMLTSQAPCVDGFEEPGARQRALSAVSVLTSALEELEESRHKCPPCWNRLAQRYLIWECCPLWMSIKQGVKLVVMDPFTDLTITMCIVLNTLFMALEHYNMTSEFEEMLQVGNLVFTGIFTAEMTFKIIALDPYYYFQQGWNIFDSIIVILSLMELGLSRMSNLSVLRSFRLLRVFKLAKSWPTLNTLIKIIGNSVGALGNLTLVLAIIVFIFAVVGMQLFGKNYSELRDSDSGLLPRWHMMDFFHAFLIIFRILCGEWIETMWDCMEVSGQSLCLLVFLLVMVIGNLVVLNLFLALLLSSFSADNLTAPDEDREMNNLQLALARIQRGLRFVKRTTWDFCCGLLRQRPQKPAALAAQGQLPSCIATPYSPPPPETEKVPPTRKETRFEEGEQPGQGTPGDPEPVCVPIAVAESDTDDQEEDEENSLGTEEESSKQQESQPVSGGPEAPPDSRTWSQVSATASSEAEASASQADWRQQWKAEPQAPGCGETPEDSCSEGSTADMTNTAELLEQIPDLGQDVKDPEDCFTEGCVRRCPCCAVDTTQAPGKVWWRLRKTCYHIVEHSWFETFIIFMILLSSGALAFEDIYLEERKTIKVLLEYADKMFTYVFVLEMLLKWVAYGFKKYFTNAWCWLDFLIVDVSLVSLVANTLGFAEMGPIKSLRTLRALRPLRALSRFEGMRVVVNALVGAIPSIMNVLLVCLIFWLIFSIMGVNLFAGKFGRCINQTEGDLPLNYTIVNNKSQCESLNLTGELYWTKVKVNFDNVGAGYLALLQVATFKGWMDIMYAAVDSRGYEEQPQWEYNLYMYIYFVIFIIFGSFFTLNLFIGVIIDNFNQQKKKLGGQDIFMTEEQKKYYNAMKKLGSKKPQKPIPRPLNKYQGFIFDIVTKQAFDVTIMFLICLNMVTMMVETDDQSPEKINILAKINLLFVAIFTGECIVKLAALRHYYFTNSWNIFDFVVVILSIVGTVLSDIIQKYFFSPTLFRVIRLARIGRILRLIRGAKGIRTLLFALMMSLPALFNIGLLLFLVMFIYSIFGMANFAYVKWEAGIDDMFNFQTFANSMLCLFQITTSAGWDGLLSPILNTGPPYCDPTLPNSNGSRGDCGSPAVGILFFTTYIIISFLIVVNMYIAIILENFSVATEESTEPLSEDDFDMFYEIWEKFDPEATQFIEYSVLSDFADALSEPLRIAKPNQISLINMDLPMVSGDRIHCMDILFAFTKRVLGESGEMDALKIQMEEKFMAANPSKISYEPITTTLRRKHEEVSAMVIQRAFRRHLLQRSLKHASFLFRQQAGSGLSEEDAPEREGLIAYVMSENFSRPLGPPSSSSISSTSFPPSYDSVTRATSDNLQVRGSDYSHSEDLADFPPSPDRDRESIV
UniProt Q9UQD0, whole entry, looked up: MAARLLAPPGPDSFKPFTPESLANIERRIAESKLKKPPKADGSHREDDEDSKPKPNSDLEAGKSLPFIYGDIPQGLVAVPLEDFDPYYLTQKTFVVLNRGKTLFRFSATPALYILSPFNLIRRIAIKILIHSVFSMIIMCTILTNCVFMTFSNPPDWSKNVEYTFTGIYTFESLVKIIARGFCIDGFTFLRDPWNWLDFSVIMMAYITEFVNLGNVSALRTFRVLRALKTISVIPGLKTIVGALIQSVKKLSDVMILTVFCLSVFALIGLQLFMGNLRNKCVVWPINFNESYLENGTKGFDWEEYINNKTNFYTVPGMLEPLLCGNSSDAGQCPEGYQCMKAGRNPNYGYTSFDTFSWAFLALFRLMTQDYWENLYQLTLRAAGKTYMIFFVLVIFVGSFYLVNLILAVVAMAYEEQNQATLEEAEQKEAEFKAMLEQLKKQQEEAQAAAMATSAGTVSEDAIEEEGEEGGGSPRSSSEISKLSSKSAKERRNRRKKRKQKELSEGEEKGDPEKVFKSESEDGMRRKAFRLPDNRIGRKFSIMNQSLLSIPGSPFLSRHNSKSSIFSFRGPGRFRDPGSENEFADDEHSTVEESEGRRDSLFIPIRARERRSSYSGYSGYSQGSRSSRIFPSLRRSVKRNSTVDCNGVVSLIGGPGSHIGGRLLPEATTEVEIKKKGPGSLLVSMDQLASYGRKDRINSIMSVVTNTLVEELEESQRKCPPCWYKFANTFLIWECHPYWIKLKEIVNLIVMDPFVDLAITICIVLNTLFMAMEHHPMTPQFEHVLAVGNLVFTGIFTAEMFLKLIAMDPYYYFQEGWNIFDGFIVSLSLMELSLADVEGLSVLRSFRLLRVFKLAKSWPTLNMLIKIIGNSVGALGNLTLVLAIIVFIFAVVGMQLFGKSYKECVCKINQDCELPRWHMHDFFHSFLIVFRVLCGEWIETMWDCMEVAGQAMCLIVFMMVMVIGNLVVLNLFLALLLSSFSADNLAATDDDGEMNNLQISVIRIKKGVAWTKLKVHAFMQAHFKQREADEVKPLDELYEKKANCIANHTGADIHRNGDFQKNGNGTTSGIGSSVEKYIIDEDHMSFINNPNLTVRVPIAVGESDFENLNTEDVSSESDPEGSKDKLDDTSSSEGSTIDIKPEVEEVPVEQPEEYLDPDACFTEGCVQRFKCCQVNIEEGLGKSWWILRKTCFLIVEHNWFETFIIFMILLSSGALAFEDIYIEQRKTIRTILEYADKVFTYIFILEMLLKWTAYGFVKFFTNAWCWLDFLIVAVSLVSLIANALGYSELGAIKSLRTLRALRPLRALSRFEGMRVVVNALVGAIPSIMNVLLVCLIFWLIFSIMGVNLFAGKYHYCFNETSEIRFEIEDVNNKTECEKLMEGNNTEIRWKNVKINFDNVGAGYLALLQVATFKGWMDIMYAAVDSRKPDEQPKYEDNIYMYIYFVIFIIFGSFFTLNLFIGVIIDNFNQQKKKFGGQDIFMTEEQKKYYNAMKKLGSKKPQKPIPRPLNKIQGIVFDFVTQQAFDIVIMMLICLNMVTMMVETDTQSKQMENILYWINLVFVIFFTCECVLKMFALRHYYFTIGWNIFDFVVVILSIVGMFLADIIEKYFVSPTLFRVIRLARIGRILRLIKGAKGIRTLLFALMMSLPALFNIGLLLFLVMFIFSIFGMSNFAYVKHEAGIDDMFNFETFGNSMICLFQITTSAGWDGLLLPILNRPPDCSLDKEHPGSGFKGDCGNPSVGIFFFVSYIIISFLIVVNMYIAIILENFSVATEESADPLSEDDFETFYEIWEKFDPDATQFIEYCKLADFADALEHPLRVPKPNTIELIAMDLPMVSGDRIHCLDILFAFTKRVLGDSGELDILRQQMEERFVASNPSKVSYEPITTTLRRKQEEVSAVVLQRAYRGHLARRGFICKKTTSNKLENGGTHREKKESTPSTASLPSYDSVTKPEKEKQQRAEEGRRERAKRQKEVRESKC

Tests used:
hNaV1.1 = hNaV1.1 (Homo sapiens, UniProt P35498); assay: Automated whole-cell patch-clamp electrophysiology, hNaV1.1/β1 in HEK293 cells; details: read-out: IC50 NaV1.1; automated whole-cell patch-clamp (QPatch-16), HEK293 hNaV1.1/β1, peptide with 0.1% BSA, 5 min per concentration, pulse to −20 mV from −90 mV, 22 °C; mean ± SEM, n = 3–10 cells
hNaV1.7 = hNaV1.7 (Homo sapiens, UniProt Q15858); assay: Automated whole-cell patch-clamp electrophysiology, hNaV1.7/β1 in HEK293 cells; details: for Inhibitory Potency at hNaV1.7: Yes/No summary, Table 2; for IC50: read-out: IC50 hNaV1.7, analogue and extended µ-conotoxin series (Table 3, Figures 2 and 6), automated whole-cell patch-clamp, HEK293 hNaV1.7/β1, 5 min per concentration, 22 °C, mean ± SEM, n = 3–4 cells
hNaV1.5 [1] = molecular target: T1, hNaV1.5 (Homo sapiens, UniProt Q14524); assay: Automated whole-cell patch-clamp electrophysiology, hNaV1.5/β1 in HEK293 cells; details: read-out: IC50 NaV1.5; automated whole-cell patch-clamp (QPatch-16), HEK293 hNaV1.5/β1, 0.1% BSA, 5 min per concentration, 22 °C; n = 3–10 cells
hNaV1.6 = hNaV1.6 (Homo sapiens, UniProt Q9UQD0); assay: Automated whole-cell patch-clamp electrophysiology, hNaV1.6/β1 in HEK293 cells; details: read-out: IC50 NaV1.6; automated whole-cell patch-clamp (QPatch-16), HEK293 hNaV1.6/β1, 0.1% BSA, 5 min per concentration, 22 °C; mean ± SEM, n = 3–10 cells
hNaV1.5 [2] = molecular target: T1, hNaV1.5; details: read-out: IC50 NaV1.5; whole-cell patch-clamp, HEK293 hNaV1.5/β1; cited from earlier work

Compound	IC50 (hNaV1.1)	Inhibitory Potency at hNaV1.7 (hNaV1.7)	IC50 (hNaV1.5 [1])	IC50 (hNaV1.6)	IC50 (hNaV1.5 [2])	IC50 (hNaV1.7)
N=C(N)NCCC[C@@H]1NC(=O)CNC(=O)[C@H](CC(N)=O)NC(=O)[C@@H]2CSSC[C@@H]3NC(=O)[C@H](CCCNC(=N)N)NC(=O)[C@H](CO)NC(=O)[C@H](Cc4c[nH]cn4)NC(=O)[C@H](CC(=O)O)NC(=O)[C@H](CCCNC(=N)N)NC(=O)[C@H](CSSC[C@H](NC(=O)[C@H](CCCNC(=N)N)NC(=O)[C@@H]4CCC(=O)N4)C(=O)N2)NC(=O)[C@H](Cc2c[nH]c4ccccc24)NC(=O)[C@H](CCCNC(=N)N)NC(=O)[C@H](CO)NC(=O)[C@H](CO)NC(=O)[C@H](CSSC[C@@H](C(N)=O)NC3=O)NC(=O)CNC(=O)[C@H](CCCNC(=N)N)NC1=O	235 nM	Yes	> 1000 nM	106 nM		
C[C@@H]1NC(=O)[C@H](Cc2c[nH]cn2)NC(=O)[C@H](CC(=O)O)NC(=O)[C@H](CCCNC(=N)N)NC(=O)[C@@H]2CSSC[C@H](NC(=O)CNC(=O)[C@@H](N)CCCNC(=N)N)C(=O)N[C@H]3CSSC[C@H](NC(=O)[C@H](CCCNC(=N)N)NC1=O)C(=O)N[C@H](C(N)=O)CSSC[C@H](NC(=O)CNC(=O)CNC(=O)[C@H](CCCNC(=N)N)NC(=O)CNC(=O)[C@H](CC(N)=O)NC3=O)C(=O)N[C@@H](CO)C(=O)N[C@@H](CO)C(=O)N[C@@H](CCCNC(=N)N)C(=O)N[C@@H](Cc1c[nH]c3ccccc13)C(=O)N2					> 1000 nM	
N=C(N)NCCC[C@@H]1NC(=O)[C@H](CO)NC(=O)[C@H](Cc2c[nH]cn2)NC(=O)[C@H](CC(=O)O)NC(=O)[C@H](CCCNC(=N)N)NC(=O)[C@@H]2CSSC[C@@H]3NC(=O)[C@@H](N)CSSC[C@H](NC1=O)C(=O)N[C@H](C(N)=O)CSSC[C@H](NC(=O)[C@H](CC(N)=O)NC3=O)C(=O)N[C@@H](CO)C(=O)N[C@@H](CO)C(=O)N[C@@H](CCCCN)C(=O)N[C@@H](Cc1c[nH]c3ccccc13)C(=O)N2	136 nM	Yes	> 1000 nM	762 nM		384 nM
C[C@@H]1NC(=O)[C@H](Cc2c[nH]cn2)NC(=O)[C@H](CC(=O)O)NC(=O)[C@H](CCCNC(=N)N)NC(=O)[C@@H]2CSSC[C@H](NC(=O)CNC(=O)[C@@H](N)CCCNC(=N)N)C(=O)N[C@H]3CSSC[C@H](NC(=O)[C@H](CCCNC(=N)N)NC1=O)C(=O)N[C@H](C(N)=O)CSSC[C@H](NC(=O)[C@H](CC(N)=O)NC3=O)C(=O)N[C@@H](CO)C(=O)N[C@@H](CO)C(=O)N[C@@H](CCCNC(=N)N)C(=O)N[C@@H](Cc1c[nH]c3ccccc13)C(=O)N2						318 nM
C[C@@H]1NC(=O)[C@H](Cc2c[nH]cn2)NC(=O)[C@H](CC(=O)O)NC(=O)[C@H](CCCNC(=N)N)NC(=O)[C@@H]2CSSC[C@H](NC(=O)CNC(=O)[C@@H](N)CCCNC(=N)N)C(=O)N[C@H]3CSSC[C@H](NC(=O)[C@H](CCCNC(=N)N)NC1=O)C(=O)N[C@H](C(N)=O)CSSC[C@H](NC(=O)CNC(=O)CNC(=O)[C@H](CC(N)=O)NC3=O)C(=O)N[C@@H](CO)C(=O)N[C@@H](CO)C(=O)N[C@@H](CCCNC(=N)N)C(=O)N[C@@H](Cc1c[nH]c3ccccc13)C(=O)N2						314 nM
